# Source: publication PMC6907878
# Target: T1, CueR (Pseudomonas aeruginosa PAO1) (UniProt Q9HV30)
# T1 sequence (looked up): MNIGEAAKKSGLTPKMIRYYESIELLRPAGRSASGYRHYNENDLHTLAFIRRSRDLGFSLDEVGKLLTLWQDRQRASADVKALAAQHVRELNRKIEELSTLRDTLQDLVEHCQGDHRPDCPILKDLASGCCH
# Experiment: EMSA
# Conditions: recombinant protein; residues 1-132; label: none (SYBR Gold stain); probe letters rebuilt from the primers and the genome
sequence,measurement,value
CTGCGACTCCCGCCGTCTTGAATGAAGACCACCGCGTAGCGGGCCGGATGGCCGCTCGCGCCGGGTCATGCCGAAAAGAAGAATGCGCCTGTCGTTATACGCCCCAGGCACGGGGAACGAAATGATCGCACAAGGGCGGCTGGCTCTTCTGCGGCATGGGGCCGCAGAATTTTCCGTTGCGGAGAGCGTGCCGGCGGCGCAATCGAGGACAAGCTTTCACCGCAGAGAAAGAATAAAAACCCACAAAAGCCGCACAAATGGGAAATTCTACTAATTTTCCTTTAATGCTTGCCATTCAAATGCAGTCTCACTAGTGTGGTACGCATGAAAACACCACACACCCTCATCCTGCTCCGCCAACACGCCTGCCT (double strand) [oprC promoter],binding result,binds

# Where a protein sequence is shown, tags need not be part of it.
